# Measurements published in patent US20220089698A1, “ANTIBODIES THAT TARGET HIV GP120 AND METHODS OF USE” (published 2022).
# Tests used:
# Test in all cases: cell-based or functional assay
# [1] = biological target: HIV-1 envelope glycoprotein gp120 of viral clone VS052 (HIV-1)
# [2] = biological target: HIV-1 envelope glycoprotein gp120 of viral clone VS023 (HIV-1)
# [3] = biological target: HIV-1 envelope glycoprotein gp120 of viral clone VS010 (HIV-1)
# [4] = biological target: HIV-1 envelope glycoprotein gp120 of viral clone VS008 (HIV-1)
# [5] = biological target: HIV-1 envelope glycoprotein gp120 of viral clone VS044 (HIV-1)
# [6] = biological target: HIV-1 envelope glycoprotein gp120 of viral clone VS017 (HIV-1)
# [7] = biological target: HIV-1 envelope glycoprotein gp120 of viral clone VS038 (HIV-1)
# [8] = biological target: HIV-1 envelope glycoprotein gp120 of viral clone VS002 (HIV-1)
# [9] = biological target: HIV-1 envelope glycoprotein gp120 of viral clone VS042 (HIV-1)
# [10] = biological target: HIV-1 envelope glycoprotein gp120 of viral clone VS049 (HIV-1)
# [11] = biological target: HIV-1 envelope glycoprotein gp120 of viral clone VS029 (HIV-1)
# [12] = biological target: HIV-1 envelope glycoprotein gp120 of viral clone VS032 (HIV-1)
# [13] = biological target: HIV-1 envelope glycoprotein gp120 of viral clone VS003 (HIV-1)
# [14] = biological target: HIV-1 envelope glycoprotein gp120 of viral clone VS046 (HIV-1)
# [15] = biological target: HIV-1 envelope glycoprotein gp120 of viral clone VS004 (HIV-1)
# [16] = biological target: HIV-1 envelope glycoprotein gp120 of viral clone VS001 (HIV-1)
# [17] = biological target: HIV-1 envelope glycoprotein gp120 of viral clone VS007 (HIV-1)
# [18] = biological target: HIV-1 envelope glycoprotein gp120 of viral clone VS030 (HIV-1)
# [19] = biological target: HIV-1 envelope glycoprotein gp120 of viral clone VS026 (HIV-1)
# [20] = biological target: HIV-1 envelope glycoprotein gp120 of viral clone VS034 (HIV-1)
# [21] = biological target: HIV-1 envelope glycoprotein gp120 of viral clone VS033 (HIV-1)
# [22] = biological target: HIV-1 envelope glycoprotein gp120 of viral clone VS011 (HIV-1)
# [23] = biological target: T1, HIV-1 envelope glycoprotein gp120 of viral isolate 8176 (HIV-1)
# [24] = biological target: T1, HIV-1 envelope glycoprotein gp120 of …; remark: listed apart in the source
# [25] = biological target: T2, HIV-1 envelope glycoprotein gp120 of viral isolate 302076 (HIV-1)
# [26] = biological target: T3, HIV-1 envelope glycoprotein gp120 of viral isolate 8398 (HIV-1)
# [27] = biological target: T1, HIV-1 envelope glycoprotein gp120 of …; remark: listed apart in the source
# [28] = biological target: T1, HIV-1 envelope glycoprotein gp120 of …; remark: listed apart in the source
# [29] = biological target: T2, HIV-1 envelope glycoprotein gp120 of …; remark: listed apart in the source
# [30] = biological target: T3, HIV-1 envelope glycoprotein gp120 of …; remark: listed apart in the source
# [31] = biological target: HIV-1 envelope glycoprotein gp120 of viral isolate 92US657 (HIV-1)
# [32] = biological target: HIV-1 envelope glycoprotein gp120 of viral isolate 92US712 (HIV-1)
# [33] = biological target: T1, HIV-1 envelope glycoprotein gp120 of …; remark: listed apart in the source
# [34] = biological target: T2, HIV-1 envelope glycoprotein gp120 of …; remark: listed apart in the source
# [35] = biological target: T3, HIV-1 envelope glycoprotein gp120 of …; remark: listed apart in the source
# [36] = biological target: T1, HIV-1 envelope glycoprotein gp120 of …; remark: listed apart in the source
# [37] = biological target: T2, HIV-1 envelope glycoprotein gp120 of …; remark: listed apart in the source
# [38] = biological target: T3, HIV-1 envelope glycoprotein gp120 of …; remark: listed apart in the source
binder,measurement,setting,value
"Antibody A-1 (antibody, human IgG1, kappa) heavy: QVQLLQSGAAVTKPGASVRVSCEASGYNIRDYFIHWWRQAPGQGLQWVGWINPKTGQPNNPRQFQGRVSLTRHASWDFDTFSFYMDLKALRSDDTAVYFCARQRSDYWDFDVWGSGTQVTVSSASTKGPSVFPLAPSSKSTSGGTAALGCLVKDYFPEPVTVSWNSGALTSGVHTFPAVLQSSGLYSLSSVVTVPSSSLGTQTYICNVNHKPSNTKVDKKVEPKSCDKTHTCPPCPAPELLAGPDVFLFPPKPKDTLMISRTPEVTCVVVDVSHEDPEVKFNWYVDGVEVHNAKTKPREEQYNSTYRVVSVLTVLHQDWLNGKEYKCKVSNKALPLPEEKTISKAKGQPREPQVYTLPPSREEMTKNQVSLTCLVKGFYPSDIAVEWESNGQPENNYKTTPPVLDSDGSFFLYSKLTVDKSRWQQGNVFSCSVLHEALHSHYTQKSLSLSPGK light: not shown",ADCC Emax (%) average from two donors,[1],34%
same,ADCC Emax (%) average from two donors,[2],0.8%
same,ADCC Emax (%) average from two donors,[3],69%
same,ADCC Emax (%) average from two donors,[4],60%
same,ADCC Emax (%) average from two donors,[5],31.4%
same,ADCC Emax (%) average from two donors,[6],40.5%
same,ADCC Emax (%) average from two donors,[7],36.1%
same,ADCC Emax (%) average from two donors,[8],22.9%
same,ADCC Emax (%) average from two donors,[9],39.6%
same,ADCC Emax (%) average from two donors,[10],7.8%
same,ADCC Emax (%) average from two donors,[11],1.5%
same,ADCC Emax (%) average from two donors,[12],29.1%
same,ADCC Emax (%) average from two donors,[13],44.4%
same,ADCC Emax (%) average from two donors,[14],41.9%
same,ADCC Emax (%) average from two donors,[15],31.7%
same,ADCC Emax (%) average from two donors,[16],26.8%
same,ADCC Emax (%) average from two donors,[17],45%
same,ADCC Emax (%) average from two donors,[18],39.3%
same,ADCC Emax (%) average from two donors,[19],31.3%
same,ADCC Emax (%) average from two donors,[20],40.6%
same,ADCC Emax (%) average from two donors,[21],31.1%
same,ADCC Emax (%) average from two donors,[22],34.6%
same,"Killing EC50 by neutrophils, donor 92132",[23],0.231 µg/mL
same,"Killing EC50 by neutrophils, donor 92602",[23],1.1 µg/mL
same,"Killing EC50 by monocytes, donor 0117",[24],0.402 µg/mL
same,"Killing EC50 by monocytes, donor 3594",[24],0.309 µg/mL
same,"Killing EC50 by monocytes, donor 0117",[25],6.51 µg/mL
same,"Killing EC50 by monocytes, donor 3594",[25],0.062 µg/mL
same,"Killing EC50 by monocytes, donor 0117",[26],> 100 µg/mL
same,"Killing EC50 by monocytes, donor 3594",[26],> 100 µg/mL
same,"Killing AUC by neutrophils, donor 92132",[27],74
same,"Killing AUC by neutrophils, donor 92602",[27],47
same,"Killing AUC by monocytes, donor 0117",[28],83
same,"Killing AUC by monocytes, donor 3594",[28],141
same,"Killing AUC by monocytes, donor 0117",[29],54
same,"Killing AUC by monocytes, donor 3594",[29],166
same,"Killing AUC by monocytes, donor 0117",[30],0
same,"Killing AUC by monocytes, donor 3594",[30],13
same,"ADCC EC50 (µg/mL), NK Donor 1, 92US657-infected cells",[31],0.74 µg/mL
same,"ADCC EC50 (µg/mL), NK Donor 2, 92US657-infected cells",[31],0.55 µg/mL
same,"ADCC EC50 (µg/mL), NK Donor 3, 92US657-infected cells",[31],0.37 µg/mL
same,"ADCC Emax (%), NK Donor 1, 92US657-infected cells",[31],58%
same,"ADCC Emax (%), NK Donor 2, 92US657-infected cells",[31],50%
same,"ADCC Emax (%), NK Donor 3, 92US657-infected cells",[31],52%
same,"ADCC EC50 (µg/mL), NK Donor 1, 92US712-infected cells",[32],0.19 µg/mL
same,"ADCC EC50 (µg/mL), NK Donor 2, 92US712-infected cells",[32],0.09 µg/mL
same,"ADCC EC50 (µg/mL), NK Donor 3, 92US712-infected cells",[32],0.16 µg/mL
same,"ADCC Emax (%), NK Donor 1, 92US712-infected cells",[32],77%
same,"ADCC Emax (%), NK Donor 2, 92US712-infected cells",[32],62%
same,"ADCC Emax (%), NK Donor 3, 92US712-infected cells",[32],62%
same,"Killing EC50 by NK cells, donor 0117",[33],1.1 µg/mL
same,"Killing EC50 by NK cells, donor 3594",[33],0.518 µg/mL
same,"Killing EC50 by NK cells, donor 0117",[34],1.7 µg/mL
same,"Killing EC50 by NK cells, donor 3594",[34],2.61 µg/mL
same,"Killing EC50 by NK cells, donor 0117",[35],> 100 µg/mL
same,"Killing EC50 by NK cells, donor 3594",[35],> 100 µg/mL
same,"Killing AUC by NK cells, donor 0117",[36],108
same,"Killing AUC by NK cells, donor 3594",[36],142
same,"Killing AUC by NK cells, donor 0117",[37],116
same,"Killing AUC by NK cells, donor 3594",[37],76
same,"Killing AUC by NK cells, donor 0117",[38],4
same,"Killing AUC by NK cells, donor 3594",[38],6
